Activity calls are given as the source filed them. The calls are words filed in the database; no cut-off is given here.
These compounds were tested on Vesicular stomatitis virus (assay: Antiviral activity against VSV infected in human HepG2-NTCP cells assessed as reduction in HBeAg and HBsAg secretion at 1 uM incubated for 24 hrs followed by replacement with fresh medium and measured at day 5 post infection by ELISA).

Structure (SMILES)	Activity
C[C@H](CCCN(CC[C@@H](C)[C@H]1CC[C@H]2[C@@H]3[C@@H](O)C[C@@H]4C[C@H](O)CC[C@]4(C)[C@H]3CC[C@]12C)CCS(=O)(=O)O)[C@H]1CC[C@H]2[C@@H]3[C@@H](O)C[C@@H]4C[C@H](O)CC[C@]4(C)[C@H]3CC[C@]12C	inactive
C[C@@H]1CCC(=O)NCCNC(=O)CC[C@@H](C)[C@H]2CC[C@H]3[C@@H]4[C@@H](O)C[C@@H]5C[C@@H](CC[C@]5(C)[C@H]4CC[C@]23C)NC(=O)CCCC(=O)N[C@@H]2CC[C@@]3(C)[C@@H](C2)C[C@H](O)[C@@H]2[C@@H]3CC[C@]3(C)[C@@H]1CC[C@@H]23	inactive
C[C@H](CCC(=O)NCCS(=O)(=O)O)[C@H]1CC[C@H]2[C@@H]3[C@@H](O)C[C@@H]4C[C@H](OC(=O)CCCC(=O)O[C@@H]5CC[C@@]6(C)[C@@H](C5)C[C@H](O)[C@@H]5[C@@H]6CC[C@]6(C)[C@@H]([C@H](C)CCC(=O)NCCS(=O)(=O)O)CC[C@@H]56)CC[C@]4(C)[C@H]3CC[C@]12C	inactive
C[C@H](CCC(=O)NCCS(=O)(=O)O)[C@H]1CC[C@H]2[C@@H]3[C@@H](O)C[C@@H]4C[C@H](NC(=O)CCCC(=O)N[C@@H]5CC[C@@]6(C)[C@@H](C5)C[C@H](O)[C@@H]5[C@@H]6CC[C@]6(C)[C@@H]([C@H](C)CCC(=O)NCCS(=O)(=O)O)CC[C@@H]56)CC[C@]4(C)[C@H]3CC[C@]12C	inactive
C[C@H](CCC(=O)NCCS(=O)(=O)O)[C@H]1CC[C@H]2[C@@H]3[C@@H](O)C[C@@H]4C[C@H](OCc5cn([C@@H]6CC[C@@]7(C)[C@@H](C6)C[C@H](O)[C@@H]6[C@@H]7CC[C@]7(C)[C@@H]([C@H](C)CCC(=O)NCCS(=O)(=O)O)CC[C@@H]67)nn5)CC[C@]4(C)[C@H]3CC[C@]12C	inactive
C[C@H](CCC(=O)O[C@@H]1CC[C@@]2(C)[C@@H](C1)C[C@H](O)[C@@H]1[C@@H]2CC[C@]2(C)[C@@H]([C@H](C)CCC(=O)NCCS(=O)(=O)O)CC[C@@H]12)[C@H]1CC[C@H]2[C@@H]3[C@@H](O)C[C@@H]4C[C@H](O)CC[C@]4(C)[C@H]3CC[C@]12C	inactive

Reference: ChEMBL document CHEMBL4834431, “Design of Dimeric Bile Acid Derivatives as Potent and Selective Human NTCP Inhibitors” (J Med Chem, 2021)
